Measured values from several laboratories, pooled; numbers as filed in NIAID ChemDB.

Shared fields: growth or infection tests; organism: HIV-1

Blank or dashed fields: not listed here. ECn: concentration that inhibits the pathogen or its effect by n%. Lines come from different laboratories, so protocols vary.

smiles | strain | cell line | read by | setting | read-out | mutations | result
COC(=O)N[C@H](C(=O)N[C@@H](Cc1ccccc1)[C@@H](O)CN(Cc1ccc(-c2ccccn2)cc1)NC(=O)[C@@H](NC(=O)OC)C(C)(C)C)C(C)(C)C | NL4-3 | MT-4 | - | - | EC50 | L10F M46I I54V V82A LPV resistant | 0.033 µM
O=c1[nH]cnc2c1ncn2[C@H]1CC[C@@H](CO)O1 | IIIB TIBO R82913 STR-1 (RT L100I Y181C) | CEM | syncytia | - | EC50 | RT-L100I Y181C | 15 µM
CN1CCC(CC2(CC3CCN(C)CC3)c3ccccc3-c3ccccc32)CC1 | IIIB | MT-2 | cytopathic effect / XTT | - | EC50 | - | 1 µM
CC[C@H](C)[C@H](C(=O)O)N1C[C@H](CN2CCC(c3cc(Cc4ccc(O)cc4)nn3CC)CC2)[C@@H](c2cccc(F)c2)C1 | BaL | HeLa | β-galactosidase | - | EC50 | - | <0.0004 µM
Cc1cn([C@H]2C[C@H](N=[N+]=[N-])[C@@H](CO)O2)c(=O)[nH]c1=O | RT P119S V179D L214F | MT-2 | p24 | - | EC50 | RT-P119S V179D L214F | 0.015 µM
CN1CC=C(CC2(CC3=CCN(C)CC3)C(=O)N3c4ccccc4CCc4cccc2c43)CC1 | IIIB | MT-2 | cytopathic effect / XTT | - | EC50 | - | 1.9 µM
N#Cc1c(N)cccc1S(=O)(=O)c1cccc(C(F)(F)F)c1 | IIIB | MT-4 | cytopathic effect | - | EC50 | - | 80 µM
CN1CCC2(CC1)C(=O)N(c1ccccc1)c1ccccc12 | IIIB | MT-2 | cytopathic effect / XTT | - | EC50 | - | 4.1 µM
O=c1[nH]cnc2c1ncn2[C@H]1CC[C@@H](CO)O1 | U455 | PBL | p24 | - | EC50 | - | 0.6 µM
CCn1nc(Cc2ccc(OC)cc2)cc1C1CCN(C[C@H]2CN([C@@H](C(=O)O)C3CCCCC3)C[C@@H]2c2cccc(F)c2)CC1 | BaL | HeLa | β-galactosidase | 50% human serum | EC50 | - | <0.033 µM
C#C[C@]1(CO)O[C@@H](n2cnc3c(N)nc(F)nc32)C[C@@H]1O | Clinical isolate | MT4-GFP | fluorescence | - | EC50 | M184V/H221Y | 0.00793 µM
N#CC[C@H](C1CCCC1)n1cc(-c2ncnc3[nH]ccc23)cn1 | - | Primary T lymphocytes | p24 / ELISA | - | EC50 | L74V | 0.1 µM
CCN[C@H]1CO[C@@H]2OCC[C@H](OC(=O)N[C@@H](Cc3ccccc3)[C@H](O)CN(CC(C)C)S(=O)(=O)c3ccc4nc(NC5CC5)sc4c3)[C@@H]21 | NL4-3 | MT-4 | p24 / luminescence | - | EC50 | L10F K20T D30N K45I A71V V77I | 0.0034 µM
O=C(N[C@H]1c2ccccc2OC[C@H]1O)[C@H](Cc1cccnc1)C[C@H](O)CN1CCN(Cc2ccn(-c3ccc(Cl)cc3)c2)C[C@H]1C(=O)NCC(F)(F)F | NL4-3 WT | MT-4 | p24 | - | EC95 | - | ≤0.008 µM
CC(C)CN(C[C@@H](O)[C@H](Cc1ccccc1)NC(=O)O[C@H]1CCOC1)S(=O)(=O)c1ccc(N)cc1 | NL4-3 | MT-4 | - | - | EC50 | L10F V32I M46I I45M A71V I84V APV resistant | >1 µM
CC[C@@H](C)[C@H](C(=O)O)N1C[C@H](CN2CCC(c3cc(Cc4ccc(OC)c(OC)c4)nn3CC)CC2)[C@@H](c2cccc(F)c2)C1 | BaL | HeLa | β-galactosidase | 50% human serum | EC50 | - | <0.033 µM
O=C(N[C@H]1c2ccccc2OCC1O)[C@H](Cc1cccnc1)C[C@H](O)CN1CCN(Cc2ccc(-c3ccccc3)o2)C[C@H]1C(=O)NCC(F)(F)F | K-60C Clinical isolate | MT-4 | p24 | - | EC95 | PR-L10I M46I I54V Q58E L63P I64V V77I V82F I84V L90M I93L | ≤0.008 µM
Nc1ncnc2c1ncn2CC(CF)OCP(=O)(O)O | IIIB TIBO R82913 STR-B02 (RT L100I E138K) | CEM | syncytia | - | EC50 | RT-L100I E138K | 4 µM
Cc1cn([C@H]2C[C@H](N=[N+]=[N-])[C@@H](CO)O2)c(=O)[nH]c1=O | IIIB | CEM + CEM-SS | cytopathic effect / XTT | - | EC50 | - | 0.01 µM
O=C(N[C@H]1c2ccccc2OC[C@H]1O)[C@H](Cc1cccnc1)C[C@H](O)CN1CCN(Cc2ccn(-c3cccc(Cl)c3)c2)C[C@H]1C(=O)NCC(F)(F)F | Q-60C Clinical isolate | MT-4 | p24 | - | EC95 | PR-L10I N37S R41K M46I I54V I62V L63P A71V V77I V82A L90M I93L | ≤0.008 µM
C/C=C/CSc1cc(NC(=S)c2ccsc2C)ccc1Cl | UC781-R (RT-Y181C) | CEM + CEM-SS | cytopathic effect / XTT | - | EC50 | RT-Y181C | 1.6 µM
Cc1cc(O)cc(S(=O)(=O)c2cccc(N)c2C#N)c1 | - | HeLa + HELA CD4+ | β-galactosidase | - | EC50 | RT-V106A Y181C | 2.1 µM
CCn1nc(Cc2ccc(OC)cc2)cc1C1CCN(C[C@H]2CN([C@@H](C(=O)O)C(C)C)C[C@@H]2c2cccc(F)c2)CC1 | BaL | HeLa | β-galactosidase | - | EC50 | - | <0.0004 µM
O=C(Nc1cc(S(=O)(=O)O)cc2cc(S(=O)(=O)O)c(N=Nc3ccc(N=Nc4c(S(=O)(=O)O)cc5cc(S(=O)(=O)O)cc(NC(=O)c6cccc(Cl)c6Cl)c5c4O)cc3)c(O)c12)c1ccc(Cl)cc1Cl | BaL | MONO/MACRO + Monocytes/macrophages | - | - | EC50 | - | 0.22 µg/mL
COc1cc(C(F)(F)F)cc(S(=O)(=O)c2cccc(N)c2C#N)c1 | - | HeLa + HELA CD4+ | β-galactosidase | - | EC50 | RT-K103N | 1.8 µM
CC(C)(C)NC(=O)[C@@H]1C[C@@H]2CCCC[C@@H]2CN1C[C@@H](O)[C@H](Cc1ccccc1)NC(=O)[C@H](CC(N)=O)NC(=O)c1ccc2ccccc2n1 | NL4-3 | MT-4 | - | - | EC50 | L10I G48V I54V A71V I84V L90M SQV resistant | >1 µM
Fc1cccc(F)c1C1SCc2nc3ccccc3n21 | UC10-resistant (RT Y181C K101E) | CEM + CEM-SS | cytopathic effect / XTT | - | EC50 | RT-Y181C K101E | >69 µM
O=c1[nH]cnc2c1ncn2[C@H]1CC[C@@H](CO)O1 | RT P119S L214F | MT-2 | p24 | - | EC50 | RT-P119S L214F | 1.5 µM
CC(C)CN(C[C@@H](O)[C@H](Cc1ccccc1)NC(=O)[C@@H](NC(=O)CNCc1cccc(F)c1)C(C)(C)C)S(=O)(=O)c1cccc(N)c1 | IIIB | MT-2 | virus yield | - | EC50 | - | <0.0046 µM
Nc1nc2c(ncn2[C@H]2CC[C@@H](CO)O2)c(=O)[nH]1 | IIIB TIBO R82913 STR-2 (RT K103N) | CEM | syncytia | - | EC50 | RT-K103N | 2 µM
O=C(c1ccccc1)N1CCC(CC2C(=O)N(c3ccccc3)c3ccccc32)CC1 | IIIB | MT-2 | cytopathic effect / XTT | - | EC50 | - | 1.3 µM
CC(C)=CCN1c2cc(Cl)cc3[nH]c(=S)n(c23)C[C@@H]1C | - | MT-4 | - | - | EC95 | RT-L74V L100I | 0.4 µM
CC(C)CN(C[C@@H](O)[C@H](Cc1ccccc1)NC(=O)O[C@H]1CCOC1)S(=O)(=O)c1ccc(N)cc1 | NL4-3 | MT-4 | p24 / luminescence | - | EC50 | L10F V32I L33F M46L I54M A71V | >1 µM
CCn1nc(Cc2cc(C(F)(F)F)cc(C(F)(F)F)c2)cc1C1CCN(C[C@H]2CN([C@@H](C(=O)O)C(C)(C)C)C[C@@H]2c2cccc(F)c2)CC1 | BaL | HeLa | β-galactosidase | - | EC90 | - | 0.011 µM
Nc1ccn([C@H]2CC[C@@H](CO)O2)c(=O)n1 | HXB2D | MT-2 | p24 | - | EC50 | - | 0.41 µM
CN[C@H]1CO[C@@H]2OCC[C@H](OC(=O)N[C@@H](Cc3ccccc3)[C@H](O)CN(CC(C)C)S(=O)(=O)c3ccc4nc(NC5CC5)sc4c3)[C@@H]21 | NL4-3 | MT-4 | p24 / luminescence | - | EC50 | L10I M46L I54V V82A | 0.0032 µM
CN1CCC(CC2(CC3CCN(C)CC3)C(=O)N(c3ccccc3)c3ccccc32)CC1 | IIIB | MT-2 | cytopathic effect / XTT | - | EC50 | - | 10.9 µM
CC[C@@H](C)[C@H](C(=O)O)N1C[C@H](CN2CCC(c3cc(Cc4ccc(OC(F)F)cc4)nn3CC)CC2)[C@@H](c2cccc(F)c2)C1 | BaL | HeLa | β-galactosidase | 50% human serum | EC90 | - | 0.011 µM
Cc1cn([C@H]2C[C@H](N=[N+]=[N-])[C@@H](CO)O2)c(=O)[nH]c1=O | - | Primary T lymphocytes | p24 / ELISA | - | EC50 | 4xAZT | 0.1 µM
N#Cc1c(N)cccc1S(=O)c1ccc(Br)cc1 | IIIB | MT-4 | cytopathic effect | - | EC50 | - | 2.21 µM
Nc1ccn([C@@H]2CS[C@H](CO)O2)c(=O)n1 | - | Primary T lymphocytes | p24 / ELISA | - | EC50 | K65R | 2.5 µM
Cc1cc(Cl)cc(S(=O)(=O)c2cccc(N)c2C#N)c1 | - | HeLa + HELA CD4+ | β-galactosidase | - | EC50 | RT-L100I K103N | 16 µM
CCn1nc(Cc2ccc(OC(F)(F)F)cc2)cc1C1CCN(C[C@H]2CN([C@@H](C(=O)O)C(C)C)C[C@@H]2c2cccc(F)c2)CC1 | BaL | HeLa | β-galactosidase | 50% human serum | EC50 | - | <0.3 µM
O=C1N(c2ccccc2)c2ccccc2C1(CCc1cccnc1)CCc1cccnc1 | IIIB | MT-2 | cytopathic effect / XTT | - | EC50 | - | 2 µM
Cc1cc(Br)cc(S(=O)(=O)c2cccc(N)c2C#N)c1 | - | HeLa + HELA CD4+ | β-galactosidase | - | EC50 | RT-P236L | 0.005 µM
CC[C@@H](C)[C@H](C(=O)O)N1C[C@H](CN2CCC(c3cc(Cc4ccc(S(=O)(=O)c5ccccc5)cc4)nn3CC)CC2)[C@@H](c2cccc(F)c2)C1 | BaL | HeLa | β-galactosidase | - | EC50 | - | <0.0004 µM
Cc1occc1C(=S)Nc1ccc(Cl)c(/C=N/OC(C)(C)C)c1 | 4XAZT+L100I | CEM + CEM-SS | cytopathic effect / XTT | - | EC50 | - | 1 µM
COC(=O)N[C@H](C(=O)N[C@@H](Cc1ccccc1)[C@@H](O)CN(Cc1ccc(-c2ccccn2)cc1)NC(=O)[C@@H](NC(=O)OC)C(C)(C)C)C(C)(C)C | NL4-3 | MT-4 | p24 / luminescence | - | EC50 | L10I I15V K20R L24I V32I M36I M46I L63P K70Q V82A I84V L89M | >1 µM
CC[C@H](C)[C@H](C(=O)O)N1C[C@H](CN2CCC(c3cc(Cc4ccc5c(c4)OCO5)nn3CC)CC2)[C@@H](c2cccc(F)c2)C1 | BaL | HeLa | β-galactosidase | - | EC90 | - | <0.00014 µM
N#Cc1ccc(-n2ccc(CN3CCN(C[C@@H](O)C[C@@H](Cc4cccnc4)C(=O)N[C@H]4c5ccccc5OC[C@H]4O)[C@H](C(=O)NCC(F)(F)F)C3)c2)cc1 | NL4-3 WT | MT-4 | p24 | - | EC50 | - | <0.062 µM
N#Cc1cccc(S(=O)(=O)c2cccc(N)c2C#N)c1 | IIIB | MT-4 | cytopathic effect | - | EC50 | - | 5.4 µM
CC(C)CN(C[C@@H](O)[C@H](Cc1ccccc1)NC(=O)O[C@H]1CCO[C@H]2OCC[C@H]21)S(=O)(=O)c1ccc2nc(NC3CC3)sc2c1 | NL4-3 | MT-4 | p24 / luminescence | - | EC50 | L10I L33I M36I M46I I54V K55R I62V L63P A71V G73S V82T L90M I93L | 0.038 µM
Nc1ncnc2c1ncn2CCOCP(=O)(O)O | IIIB TIBO R82913 STR-2 (RT K103N) | CEM | syncytia | - | EC50 | RT-K103N | 10 µM
Nc1ncnc2c1ncn2[C@@H]1O[C@H](CO)C[C@@H]1F | T215Y(RT-T215Y) | MT-2 | p24 | - | EC50 | RT-T215Y | 5 µM
Nc1ccn([C@H]2CC[C@@H](CO)O2)c(=O)n1 | IIIB TIBO R82150-resistant (RT L100I) | CEM | syncytia | - | EC50 | RT-L100I | 0.018 µM
Cc1cccc(C)c1OCC(=O)N[C@@H](Cc1ccccc1)[C@@H](O)C[C@H](Cc1ccccc1)NC(=O)[C@H](C(C)C)N1CCCNC1=O | HXB2 | PBMC | p24 | - | EC50 | PR-M46I L63P A71V V82F I84V | <0.54 µM

A second listing of 4 rows from above:

smiles	strain	cell line	read by	setting	read-out	mutations	result
CC(C)CN(C[C@@H](O)[C@H](Cc1ccccc1)NC(=O)O[C@H]1CCOC1)S(=O)(=O)c1ccc(N)cc1	NL4-3	MT-4	-	-	EC50	L10F V32I M46I I45M A71V I84V APV resistant	>1 µM
CCn1nc(Cc2ccc(OC)cc2)cc1C1CCN(C[C@H]2CN([C@@H](C(=O)O)C(C)C)C[C@@H]2c2cccc(F)c2)CC1	BaL	HeLa	β-galactosidase	-	EC50	-	<0.0004 µM
Cc1occc1C(=S)Nc1ccc(Cl)c(/C=N/OC(C)(C)C)c1	4XAZT+L100I	CEM + CEM-SS	cytopathic effect / XTT	-	EC50	-	1 µM
Cc1cc(Cl)cc(S(=O)(=O)c2cccc(N)c2C#N)c1	-	HeLa + HELA CD4+	β-galactosidase	-	EC50	RT-L100I K103N	16 µM